Pooled drug test results. Numbers come from NIAID ChemDB, via PubChem.

Common to all: enzyme or target tests; target: CCR5; endpoint: IC50

ICn is the concentration giving n% inhibition.

SMILES	method	changes	result
CC(C)C(=O)N1C[C@H](CN2CCC(c3ccccc3)CC2)[C@@H](c2ccccc2)C1	radiometric	CCR5-W86A	0.83 µM
CCCN(C(=O)N[C@@H](C)c1ccccc1)C1CCN(CCC(CN(C)S(=O)(=O)c2ccccc2)c2ccccc2)CC1	radioligand binding / binding	-	>0.1 µM
CN(CC(C)(CCN1CCC(c2ccccc2)CC1)c1ccccc1)S(=O)(=O)c1ccccc1	radioligand binding / binding	-	0.042 µM
CCCN(C(=O)OCc1ccccc1)C1CCN(CC[C@](C)(CN(C)S(=O)(=O)c2ccccc2)c2ccccc2)CC1	radioligand binding / binding	-	0.002 µM
CN(CC(CCN1CCC2(CC1)CS(=O)c1ccccc12)c1ccccc1)S(=O)(=O)c1ccccc1	radioligand binding / binding	-	0.036 µM
CN(C[C@@H](CCN1CCC2(CC1)CS(=O)(=O)c1ccccc12)c1ccc(F)cc1)S(=O)(=O)c1ccccc1	radioligand binding / binding	-	0.68 µM
CCN(C(=O)OCc1ccccc1)C1CCN(CC[C@](C)(CN(C)S(=O)(=O)c2ccccc2)c2ccccc2)CC1	radioligand binding / binding	-	0.0006 µM
CN(C[C@@H](CCN1CCC2(CC1)CS(=O)c1ccccc12)c1ccc(Cl)cc1)S(=O)(=O)c1ccccc1	radioligand binding / binding	-	0.24 µM
C=CCN(C(=O)OCc1ccc([N+](=O)[O-])cc1)C1CCN(CCC(CO)(CN(C)S(=O)(=O)c2ccccc2)c2ccccc2)CC1	radioligand binding / binding	-	0.002 µM
CN(C[C@@H](CCN1CCC(C(C)(C)C)CC1)c1cccc(Cl)c1)S(=O)(=O)c1ccccc1	radioligand binding / binding	-	<10 µM
CN(CC(C)(CCN1CCC(N(C/C=C/Cl)C(=O)OCc2ccccc2)CC1)c1ccccc1)S(=O)(=O)c1ccccc1	radioligand binding / binding	-	0.009 µM
CC(CC(CN(C)S(=O)(=O)c1ccccc1)c1ccccc1)N1CCC(c2ccccc2)CC1	radioligand binding / binding	-	0.11 µM
C=CCN(C(=O)OCc1ccc([N+](=O)[O-])cc1)C1CCN(CC[C@](C)(CN(C)S(=O)(=O)c2ccccc2)c2ccccc2)CC1	radioligand binding / binding	-	0.001 µM
Cc1ccc(C(CCN2CCC(c3ccccc3)CC2)CN(C)S(=O)(=O)c2ccccc2)cc1C	radioligand binding / binding	-	0.08 µM
CN1C(=O)c2ccccc2C12CCN(CC[C@H](CN(C)S(=O)(=O)c1ccccc1)c1cccc(Cl)c1)CC2	radioligand binding / binding	-	0.045 µM
CCN(C(=O)OCc1ccccc1)C1CCN(CCC(/C=N/O)(CN(C)S(=O)(=O)c2ccccc2)c2ccccc2)CC1	radioligand binding / binding	-	0.027 µM
O=C(c1ccccc1Cl)N1C[C@H](CN2CCC(O)(CCCc3ccc(-c4nn[nH]n4)cc3)CC2)[C@@H](c2ccccc2)C1	radiometric	CCR5-Y108A	0.15 µM
CCN(C(=O)OCc1ccccc1)C1CCN(CCC(COC(=O)c2ccccc2)(CN(C)S(=O)(=O)c2ccccc2)c2ccccc2)CC1	radioligand binding / binding	-	>1 µM
CN(CC(C)(CCN1CCC(N(CCO)C(=O)OCc2ccc([N+](=O)[O-])cc2)CC1)c1ccsc1)S(=O)(=O)c1ccccc1	radiometric	CCR5-Y251A	0.051 µM
CN(CC(c1ccccc1)C(C)(C)CN1CCC(c2ccccc2)CC1)S(=O)(=O)c1ccccc1	radioligand binding / binding	-	>10 µM
CN(CC(CCN1CCC2(CC1)CSc1ccccc12)c1cc(Cl)cc(Cl)c1)S(=O)(=O)c1ccccc1	radioligand binding / binding	-	<10 µM
CN(CCC(CCN1CCC(c2ccccc2)CC1)c1ccccc1)S(=O)(=O)c1ccccc1	radioligand binding / binding	-	0.5 µM
CN(C[C@@H](CCN1CCC(c2ccccc2)(c2ccccc2)CC1)c1cccc(Cl)c1)S(=O)(=O)c1ccccc1	radioligand binding / binding	-	10 µM
CN(CC(CCN1CCC2(CC1)CS(=O)(=O)c1ccccc12)c1ccccc1)S(=O)(=O)c1ccccc1	radioligand binding / binding	-	0.032 µM
CN(CC(CCN1CCC(c2ccccc2)CC1)c1cccc(C(=O)O)c1)S(=O)(=O)c1ccccc1	radioligand binding / binding	-	<10 µM

Repeating the first 3 entries:

SMILES	method	changes	result
CC(C)C(=O)N1C[C@H](CN2CCC(c3ccccc3)CC2)[C@@H](c2ccccc2)C1	radiometric	CCR5-W86A	0.83 µM
CCCN(C(=O)N[C@@H](C)c1ccccc1)C1CCN(CCC(CN(C)S(=O)(=O)c2ccccc2)c2ccccc2)CC1	radioligand binding / binding	-	>0.1 µM
CN(CC(C)(CCN1CCC(c2ccccc2)CC1)c1ccccc1)S(=O)(=O)c1ccccc1	radioligand binding / binding	-	0.042 µM

Neighbouring rows are from separate reports. An empty or dashed field is not shown.